PubChem BioAssay AID1259414, Drosophila RNAi Screening Center – 2018

Test: 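Fly genes that alter Wolbachia amount inside host cells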 (primary screen)
System: Drosophila JW18 cells infected with Wolbachia
Reagent: long dsRNA against Drosophila genes, 0.25 µg dsRNA per well of a 384-well plate
Timing: 5 days
Challenge: cells persistently infected with Wolbachia before knock-down; no added drug
Detection: 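Imaged fluorescence in situ signal for Wolbachia 23S rRNA per DAPI-counted host cell, given as a robust z-score within each plate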
Reading the numbers: Wolbachia per cell robust z: higher = more Wolbachia per host cell than the plate typical
Hit rule: 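Active if absolute robust z reaches 1.5 in two or more of three replicates, leaving out multi- or no-target dsRNAs, genes unexpressed in JW18 and A1 wells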
In all, the deposit lists about 24,000 reagents; shown is a random part of those that have a named target and a result. In the full data, about 1,210 (5%) were called active. 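Inactive calls also include excluded dsRNAs with several or no targets, genes unexpressed in JW18, and well A1, regardless of score.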 A plus sign joins genes that one reagent is predicted to hit.

no.	Gene	DRSC id	Wolbachia per cell robust z, rep 1	Wolbachia per cell robust z, rep 2	Wolbachia per cell robust z, rep 3	outcome
1	Wsck	DRSC13682	0.489	-0.605	-0.124	inactive
2	Wsck	DRSC28781	-0.401	1.1	1.12	inactive
3	CG18404	DRSC15323	-4.89	-4.44	0.221	inactive
4	Mys45A	DRSC07067	0.2	1.08	0.652	inactive
5	Mys45A	DRSC25852	0.964	0.556	0.128	inactive
6	CG3119	DRSC38929	-1.25	1.56	-1.9	inactive
7	Jig	DRSC14974	-1.39	-0.505	-0.504	inactive
8	CG34168	DRSC01938	0.546	0.136	-0.298	inactive
9	CG31510	DRSC14182	-2.35	0.674	0.183	inactive
10	CG8958	DRSC20134	1.22	-1.67	0.734	inactive
11	CG8958	DRSC29479	-0.387	-0.785	0.128	inactive
12	Bet5	DRSC14600	-0.458	0.72	0.535	inactive
13	CG4455	DRSC01983	1.22	0.834	-1.43	inactive
14	CG4455	DRSC21684	0.0754	-1.21	-1.31	inactive
15	sala + CG43355	DRSC03605	0.172	-0.432	-6.6	inactive
16	sala + CG43355	DRSC28864	0.333	0.707	0.404	inactive
17	CG3117	DRSC38930	-3.59	-0.737	-1.16	inactive
18	GluRIIB	DRSC03335	1.42	-0.0394	0.882	inactive
19	lovit	DRSC37733	0.105	0.303	0.361	inactive
20	lovit	DRSC37850	0.739	-0.662	-0.469	inactive
21	lovit	DRSC41342	0.939	-1.76	-0.0423	inactive
22	CycE	DRSC03295	1.78	1.79	2.68	active
23	CycE	DRSC03296	1.64	0.931	1.76	active
24	CycE	DRSC40680	0.995	0.0662	1.15	inactive
25	zuc	DRSC02160	0.943	-0.324	-0.402	inactive
26	Spn77Bc	DRSC41309	0.828	0.873	0.324	inactive
27	Fbp1	DRSC11166	1.3	-0.265	-1.54	inactive
28	Fbp1	DRSC26593	-0.499	-0.457	0.941	inactive
29	CG5196	DRSC15735	0.0755	-1.61	-1	inactive
30	CG5196	DRSC26959	0.778	0.133	-1.45	inactive
31	AsnRS-m	DRSC07010	0.01	0.495	0.0926	inactive
32	LysD + LysC	DRSC08674	0.0666	-0.932	-0.642	inactive
33	LysD + LysC	DRSC22743	0.195	0.542	1.21	inactive
34	CG11737	DRSC14364	0.782	0.97	0.517	inactive
35	CG12438	DRSC02167	-1.4	0.613	-0.175	inactive
36	Lkb1	DRSC16481	-0.213	0.298	0.261	inactive
37	CR32745	DRSC17442	0.987	0.907	0.578	inactive
38	CR32745	DRSC29689	0.396	0.761	0.663	inactive
39	Or98a	DRSC16774	-0.1	-1.95	-0.374	inactive
40	Or98a	DRSC26173	0.54	-1.9	0.142	inactive
41	CG6766	DRSC02991	0.163	-0.117	-1.07	inactive
42	Drp1	DRSC00574	-2.48	0.223	-4.1	active
43	Drp1	DRSC26413	1.13	0.555	1.22	inactive
44	pirk	DRSC04269	1.59	0.522	0.433	inactive
45	CG11638	DRSC18167	-0.567	-0.784	-1.04	inactive
46	CG11638	DRSC18640	-1.54	-0.566	-0.932	inactive
47	Pde9	DRSC19746	-3.21	-0.282	-0.519	inactive
48	Pde9	DRSC19874	-0.239	0.0136	0.853	inactive
49	Pde9	DRSC19875	0.649	-0.993	-4.61	inactive
50	Pde9	DRSC19876	-0.344	-1.15	-3.26	inactive
51	Pde9	DRSC25304	-0.0941	0.677	-0.451	inactive
52	trpl	DRSC06728	-0.543	-0.238	-1.52	inactive
53	trpl	DRSC06729	-1.74	0.892	0.447	inactive
54	trpl	DRSC25485	0.415	-0.284	-0.775	inactive
55	CG42810	DRSC02533	-0.0575	-1.01	0.386	inactive
56	Diap2	DRSC07444	-3.26	0.291	0.174	inactive
57	Diap2	DRSC26613	-0.932	-1.55	0.497	inactive
58	Arpc5	DRSC00730	-2.9	0.32	0.00289	inactive
59	VhaAC45	DRSC07058	0.539	0.828	1.85	inactive
60	mspo	DRSC07652	0.258	0.597	0.0724	inactive
61	mspo	DRSC28194	0.6	0.413	0.33	inactive
62	Rh4	DRSC11268	1.02	1.8	0.0503	inactive
63	Rh4	DRSC27381	-1.38	-0.125	-0.78	inactive
64	CG31231	DRSC13308	-0.852	-0.821	-0.119	inactive
65	CG31231	DRSC28440	-0.0975	-0.242	-0.723	inactive
66	moon	DRSC19497	-3.69	-0.736	-0.388	inactive
67	fw	DRSC20334	-2.99	-0.423	0.608	inactive
68	fw	DRSC27087	0.258	0.0213	-0.171	inactive
69	CG42747	DRSC10209	-2.73	-0.288	-0.784	inactive
70	CG42747	DRSC10210	-0.747	0.0987	-2.47	inactive
71	CG42747	DRSC26113	-1.99	-0.276	1.15	inactive
72	Yp3	DRSC20302	-0.825	1.22	0.676	inactive
73	Yp3	DRSC25550	0.317	1.19	-0.185	inactive
74	Lasp	DRSC10379	0.13	-0.198	-0.943	inactive
75	Lasp	DRSC23555	-4.01	0.394	-0.36	inactive
76	TwdlW	DRSC15540	0.577	0.26	-0.0849	inactive
77	TwdlW	DRSC25402	-0.701	1.07	0.322	inactive
78	CG31437	DRSC13711	0.049	-0.789	0.728	inactive
79	Pgant8	DRSC10801	0.899	0.503	1.03	inactive
80	Pgant8	DRSC26909	0.681	-0.35	-1.88	inactive
81	DIP1	DRSC20818	0.392	0.872	1.81	inactive
82	DIP1	DRSC27354	1.57	1.25	0.854	inactive
83	SkpC	DRSC20375	-1.28	-3.34	-1.2	inactive
84	SkpC	DRSC26926	-1.84	-6.09	-1.07	inactive
85	CG4259	DRSC00645	0.468	-0.575	-0.344	inactive
86	CG4259	DRSC29614	-0.594	0.186	-1.63	inactive
87	Ntan1	DRSC07546	0.499	0.0677	-0.952	inactive

Entries above whose target name starts with A or a (2):
Gene	DRSC id	Wolbachia per cell robust z, rep 1	Wolbachia per cell robust z, rep 2	Wolbachia per cell robust z, rep 3	outcome
AsnRS-m	DRSC07010	0.01	0.495	0.0926	inactive
Arpc5	DRSC00730	-2.9	0.32	0.00289	inactive
